Reference: PMC6414702, “AtrR Is an Essential Determinant of Azole Resistance in Aspergillus fumigatus”
Construct, isoform or probe ends are uncertain for at least one entry. At least one verdict was read from the data and is not stated in words by the source. Where a protein sequence is shown, tags need not be part of it.

Target: T1, SrbA (recombinant) (Aspergillus fumigatus) (UniProt Q4WIN1)
T1 sequence (looked up, limits assumed): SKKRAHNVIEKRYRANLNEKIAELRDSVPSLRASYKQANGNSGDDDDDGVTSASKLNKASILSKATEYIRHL
Test: EMSA
Settings: Biotin EMSA: 25 mM Tris-HCl pH 7.5, 80 mM NaCl, 35 mM KCl, 5 mM MgCl2, 10% glycerol, 1 ug poly(dI-dC), 20 ul, 0.1 ug AtrR-DBD, 20 pmol probe, room temperature 30 min; recombinant protein; label: 5' biotin on both strands

GAATCACGCGGTCCGGATGTGTGCTGAGCCGAAT (double strand) [cyp51A 34-bp probe]
binding result: binds
